Patent US8906945B2 (priority 2009, dated 2014)

Experiments:
[1] = tested on: secretion of ExoS from P. aeruginosa PAKΔTY; conditions: 50 μM during T3SS induction
[2] = tested on: secretion of ExoS from P. aeruginosa PAKΔTY; assay: microbe, parasite or virus in culture; conditions: Pseudomonas aeruginosa, read-out: IC50 of inhibition of native ExoS secretion

Row | SMILES | secretion of ExoS (in words) [1] | IC50 [2]
1 | Cc1ccc(N2C(=O)C3C(C2=O)C2(C)C=CC3(C)O2)c(C)c1 (centres unmarked) [Compound 8, 2-(2,4-dimethylphenyl)-4,7-dimethyl-3a,4,7,7a-tetrahydro-1H-4,7-epoxyisoindole-1,3(2H)-dione] | significantly, but not completely | 
2 | CCN1CCOC(CC(=O)Nc2ccc(F)cc2)C1=O (centres unmarked) [Compound 4, 2-(4-ethyl-3-oxomorpholin-2-yl)-N-(4-fluorophenyl)acetamide] | completely inhibited | 
3 | CCN1CCOC(CC(=O)Nc2ccc3c(c2)OCCO3)C1=O (centres unmarked) [Compound 3, N-(2,3-dihydrobenzo[b][1,4]dioxin-6-yl)-2-(4-ethyl-3-oxomorpholin-2-yl)acetamide] | completely inhibited | 
4 | CC(Oc1ccc(Cl)cc1Cl)C(=O)NCc1ccc2c(c1)OCO2 (racemic) [Compound 1, N-(benzo[d][1,3]dioxol-5-ylmethyl)-2-(2,4-dichlorophenoxy)propanamide] | completely inhibited | ~12.5 µM
